One substance from US6291640A (Boehringer Ingelheim Ltd., priority 1998, dated 2001) can be followed below.

HELM strings list residues between dots; [ac] is acetyl, [am] amide, other brackets name non-standard units.

The data set in a line: general procedure: peptide synthesis; resin 103 (semicarbazone-linked activated ketone resin; polystyrene or pegylated polystyrene with BHA, MBHA or AM); DIC/HOBt; or TBTU/HOBt/DIPEA. The settings on record: whole synthesis, HPLC (phosphate), scale of the general procedure 0.25 mmol.

As to “PEPTIDE1{[ac].S.Y.V.K.[Ala(d,l)-CO].[NHBn]}$$$$V2.0”, the “purity (crude or final not stated)” value is 81%.
